Values of other authors, collected in patent US20030003508A1 (priority 1999, published 2003).

Tested on: “R. felis”
Conditions: bacterium known as “R. felis” (Radulovic et al. 1995a; 1996); cited from earlier work

## CC[C@H]1OC(=O)[C@H](C)[C@@H](O[C@H]2C[C@@](C)(OC)[C@@H](O)[C@H](C)O2)[C@H](C)[C@@H](O[C@@H]2O[C@H](C)C[C@H](N(C)C)[C@H]2O)[C@](C)(O)C[C@@H](C)C(=O)[C@H](C)[C@@H](O)[C@]1(C)O [Erythromycin]
  resistance/sensitivity to the antibiotic: sensitivity
